We go through one molecule from US20130023585A1, “Neuraminidase Inhibitors” (TSRL, INC., priority 2010, published 2013).

Data set [1] relates to Flu A Duck/MN/1525/81 (H5N1). The class given is cell-based, influenza virus.
For data set [2] the following is noted: BALB/c, mouse, in vivo, 10 mg/kg/day.

`CCC(CC)O[C@@H]1C=C(C(=O)O)C[C@H](NC(=N)N)[C@H]1NC(C)=O` [GOC, 4-guanidinio oseltamivir carboxylate]: the “fold more active than OC” value in data set [1] stood at 100 fold. For the same molecule, in data set [2], the Survivors/Total is 5/5.
